Anti-infective test results gathered from many reports (values: NIAID ChemDB through PubChem).

Common to all: whole-cell or culture tests; species: HIV-1; method: p24; read-out: fold resistance

Fold resistance has wild type as its base.

smiles,strain,cell line,mutations,result
Cc1cn([C@H]2C[C@H](N=[N+]=[N-])[C@@H](CO)O2)c(=O)[nH]c1=O,458 clinical isolates delavirdine-resistant,PBMC,-,1
CC(C)c1nc(CN(C)C(=O)N[C@H](C(=O)N[C@@H](Cc2ccccc2)C[C@H](O)[C@H](Cc2ccccc2)NC(=O)OCc2cncs2)C(C)C)cs1,NL4-3,MT-4,PR-I84V,16
C[C@H](CNC(=S)Nc1ccc(Cl)cn1)c1ccccc1,NNRTI-resistant (RT Y181C) A17,PBMC,RT-Y181C,14
CC(C)(O)c1cccc(CN2C(=O)N(Cc3cccc(C(C)(C)O)c3)[C@H](Cc3ccccc3)[C@H](O)[C@@H](O)[C@H]2Cc2ccccc2)c1,HXB2,MT-2/MT-4 + MT-2,PR-V82F,3.8
Nc1ccn([C@H]2CC[C@@H](CO)O2)c(=O)n1,HXB2-D (RT K65R M184V),MT-4,RT-K65R M184V,12.9
O=c1[nH]cnc2c1ncn2[C@H]1CC[C@@H](CO)O1,L74V(RT-L74V),MT-2,RT-L74V,2.7
Nc1nc(=O)n([C@H]2CO[C@@H](CO)S2)cc1F,HXB2D (RT-K65R),PBMC,RT-K65R,2.17
O=C(NCc1ccc(F)cc1)c1nc(N2CCCCS2(=O)=O)c2cccnc2c1O,-,-,INTG-N155S,9
Cc1cn([C@H]2C=C[C@@H](CO)O2)c(=O)[nH]c1=O,TM,PBMC,MDR,3
COc1ccc2c(c1)N(C(=O)OC(C)C)[C@@H](CSC)C(=S)N2,IIIB,CEM,RT-L100I,2
CCc1cc(NCc2nc3c(Cl)ccc(Cl)c3o2)c(=O)[nH]c1C,NL4-3,MT-4,RT-L100I,2
CC(C)Nc1cccnc1N1CCN(C(=O)c2cc3cc(NS(C)(=O)=O)ccc3[nH]2)CC1,BaL,Macrophage + Monocytes/macrophages,RT-P236L,370
Cc1nnc(C[C@H](C[C@H](O)CN2CCN(C(C)(C)c3ncc(-c4ccc(F)cc4)o3)C[C@H]2C(=O)NCC(F)(F)F)C(=O)N[C@H]2c3ccccc3OC[C@H]2O)o1,Q-60 Clinical isolate,MT-4,PR-L10I N37S R41K M46I I54V I62V L63P A71V V77I V82A L90M I93L,0.248
O=C(Nc1ncc[nH]1)c1cccc(CN2C(=O)N(Cc3ccccc3)[C@H](Cc3ccccc3)[C@H](O)[C@@H](O)[C@H]2Cc2ccccc2)c1,HXB2,MT-4,PR-V82F,0.5
Cc1nnc(C[C@H](C[C@H](O)CN2CCN(Cc3ccc(-c4ccc(Cl)cc4)o3)C[C@H]2C(=O)NCC(F)(F)F)C(=O)N[C@H]2c3ccccc3OC[C@H]2O)o1,K-60 Clinical isolate,MT-4,PR-L10I M46I I54V Q58E L63P I64V V77I V82F I84V L90M I93L,0.49
O=c1[nH]cnc2c1ncn2[C@H]1CC[C@@H](CO)O1,LAI,MT-2,RT-K65R,3.1
O=c1[nH]cnc2c1ncn2[C@H]1CC[C@@H](CO)O1,NL4-3,MT-2,RT-A360T,0.71
C[C@@H](NC(=S)Nc1ccc(Br)cn1)c1cccc2ccccc12,NNRTI-resistant (RT Y181C K103N) A17V,PBMC,RT-Y181C K103N,191
Cc1occc1C(=S)Nc1ccc(Cl)c(/C=N/OC(C)(C)C)c1,IIIB,CEM,RT-L100I,1.7
Clc1nc(Cl)c2[nH]cnc2n1,-,CD4+HELA + HeLa,RT-P157S,0.409
Nc1ccn([C@H]2CO[C@@H](CO)S2)c(=O)n1,HXB2D (RT-M184V),PBMC,RT-M184V,30
Cc1ccc(CCNC(=S)Nc2ccc(Br)cn2)cc1,A17,PBMC,RT-K103N Y181C,>14300
Nc1ccn([C@H]2CC[C@@H](CO)O2)c(=O)n1,-,MT-2,RT-K103N,1.3
O=c1[nH]cnc2c1ncn2[C@H]1CC[C@@H](CO)O1,XM-M184V,MT-4,RT-M184V,1
CC(C)=CCN1Cc2cc(Cl)cc3[nH]c(=S)n(c23)C[C@@H]1C,IIIB,CEM,RT-Y181C,100
C[C@@H](CNC(=S)Nc1ccc(Br)cn1)c1ccccc1,NNRTI-resistant (RT Y181C) A17,PBMC,RT-Y181C,223
Nc1ccn([C@H]2CC[C@@H](CO)O2)c(=O)n1,HxB2D(RT-D67G),PBMC,RT-D67G,5.85
C[C@H](CNC(=S)Nc1ccc(Br)cn1)c1ccccc1,NNRTI-resistant (RT Y181C K103N) A17V,PBMC,RT-Y181C K103N,41
O=C(N[C@H]1c2ccccc2OC[C@H]1O)[C@H](Cc1nnc(-c2ccccc2)o1)C[C@H](O)CN1CCN(Cc2ccc(-c3ccc(Cl)cc3)o2)C[C@H]1C(=O)NCC(F)(F)F,K-60 Clinical isolate,MT-4,PR-L10I M46I I54V Q58E L63P I64V V77I V82F I84V L90M I93L,≥0.51
O=C(Nc1nc2ccccc2[nH]1)c1cccc(CN2C(=O)N(CC3CC3)[C@H](Cc3ccccc3)[C@H](O)[C@@H](O)[C@H]2Cc2ccccc2)c1,HXB2,MT-4,PR-V82F,2.1
Cc1cn([C@@H]2O[C@H](CO[Si](C)(C)C(C)(C)C)C3(OS(=O)(=O)C=C3N)[C@H]2O[Si](C)(C)C(C)(C)C)c(=O)n(C)c1=O,IIIB,CEM,RT-G190E,>2080
CC(C)CN(C[C@@H](O)[C@H](Cc1ccccc1)NC(=O)O[C@H]1[C@H]2CCCO[C@H]2O[C@@H]1C)S(=O)(=O)c1ccc(N)cc1,MM,PBMC,PR-L10I K43T M46I I54V L63P A71V V82A L90M Q92K,10
Cc1csc(NC(=S)N[C@H](C)c2ccccc2)n1,NNRTI-resistant (RT Y181C K103N) A17V,PBMC,RT-Y181C K103N,196
C[C@H](Cn1cnc2c(N)ncnc21)OCP(=O)(O)O,P18 FDDA-resistant RT P119S V179D L214F,MT-2,RT-P119S V179D L214F,0.565
Cc1csc(NC(=S)N[C@H](C)c2cccc3ccccc23)n1,A17,PBMC,RT-Y181C,13.2
C[C@@H]1O[C@H]2OCCC[C@H]2[C@H]1OC(=O)N[C@@H](Cc1ccccc1)[C@H](O)CN1C[C@H]2CCCC[C@H]2C[C@H]1C(=O)NC(C)(C)C,TM,PBMC,PR-L10I K14R R41K M46I I54V L63P A71V V82A L90M I93L,>4
CC(C)[C@H](NC(=O)OCc1ccccc1)C(=O)N[C@@H](Cc1ccccc1)[C@@H](O)[C@H](O)[C@H](Cc1ccccc1)NC(=O)[C@@H](NC(=O)OCc1ccccc1)C(C)C,HXB2,MT-4,PR-V82F,1.8
CCCc1nnc(C[C@H](C[C@H](O)CN2CCN(C(C)(C)c3ncc(-c4cncc(OC)c4)o3)C[C@H]2C(=O)NCC(F)(F)F)C(=O)N[C@H]2c3ccccc3OC[C@H]2O)o1,V-18 Clinical isolate,MT-4,PR-L10I M36I N37D M46I R57K L63P A71V G73S I84V L90M I93L,>2
CCNc1cccnc1N1CCN(C(=O)c2cc3cc(OC)ccc3[nH]2)CC1,BaL,PBMC,RT-V106A,17
Cc1c(O)cccc1C(=O)N[C@@H](CSc1ccccc1)[C@H](O)CN1C[C@H]2CCCC[C@H]2C[C@H]1C(=O)NC(C)(C)C,TM,PBMC,MDR,>71
Cc1cn([C@H]2C[C@H](N=[N+]=[N-])[C@@H](CO)O2)c(=O)[nH]c1=O,-,PBMC,RT-L74V T215Y K219Q,2
Cc1ccnc2c1NC(=O)c1cccnc1N2C1CC1,B9 (RT L100I V106A G190A),H9,RT-L100I V106A G190A,>111
Nc1nc(=O)n([C@@H]2CO[C@H](CO)S2)cc1F,HXB2D (RT-M184V),PBMC,RT-M184V,3
Cc1ccccc1Cc1cccc(C(=O)CC(=O)C(=O)O)c1,-,-,INTG-T66I M154I,1.5
CCCc1nnc(C[C@H](C[C@H](O)CN2CCN(C(C)(C)c3ncc(-c4ccc(F)cc4)o3)C[C@H]2C(=O)NCC(F)(F)F)C(=O)N[C@H]2c3ccccc3OC[C@H]2O)o1,K-60 Clinical isolate,MT-4,PR-L10I M46I I54V Q58E L63P I64V V77I V82F I84V L90M I93L,1
Cc1ccnc2c1NC(=O)c1cccnc1N2C1CC1,RT multidrug-resistant (L74V V106A T215Y),PBMC,RT-L74V V106A T215Y,17.2
CC(C)(C)OC(=O)N[C@@H](Cc1ccccc1)[C@H](O)CNC[C@@H](O)[C@H](Cc1ccc(OCC(=O)N2CCOCC2)cc1)NC(=O)OC(C)(C)C,NL4-3,MT-2,PR-A71T V82A,8
Cc1ccccc1CNC(=O)[C@H]1N(C[C@@H](O)C[C@@H](Cc2ccccc2)C(=O)N[C@H]2c3ccccc3OC[C@H]2O)CSC1(C)C,-,MT-4,PR-V18C,4
CC(C)(c1ncc(-c2ccc(F)cc2)o1)N1CCN(C[C@@H](O)C[C@@H](Cc2nnco2)C(=O)N[C@H]2c3ccccc3OC[C@H]2O)[C@H](C(=O)NCC(F)(F)F)C1,Q-60 Clinical isolate,MT-4,PR-L10I N37S R41K M46I I54V I62V L63P A71V V77I V82A L90M I93L,0.248
CC(C)(C)NC(=O)[C@@H]1C[C@@H]2CCCC[C@@H]2CN1C[C@@H](O)[C@H](Cc1ccccc1)NC(=O)[C@H](CC(N)=O)NC(=O)c1ccc2ccccc2n1,JSL,PBMC,MDR,19
Cc1cn([C@H]2C[C@H](N=[N+]=[N-])[C@@H](CO)O2)c(=O)[nH]c1=O,B8 (RT K101I K103N Y181C G190A),H9,RT-K101I K103N Y181C G190A,~1
C[C@@H](NC(=S)Nc1ccc(Br)cn1)c1cccc2ccccc12,A17V(RT-K103N Y181C),PBMC,RT-K103N Y181C,287
Cc1cn([C@H]2C=C[C@@H](CO)O2)c(=O)[nH]c1=O,RT-T69G K103N,MT-2,1(T69G+K103N),10
Nc1nc2c(ncn2[C@H]2CO[C@@H](CO)O2)c(=O)[nH]1,LAI,MT-2,RT-L74V,4.2
S=C(NCCc1ccccn1)Nc1ccc(Br)cn1,NRTI resistant (RT L74V M41L V106A T215Y) MDR,PBMC,RT-L74V M41L V106A T215Y,2.86
C[C@H]1O[C@@H]2OCCC[C@@H]2[C@@H]1OC(=O)N[C@@H](Cc1ccccc1)[C@H](O)CN1C[C@H]2CCCC[C@H]2C[C@H]1C(=O)NC(C)(C)C,TM,PBMC,PR-L10I K14R R41K M46I I54V L63P A71V V82A L90M I93L,>32
C[C@@H](NC(=S)Nc1ccc(Cl)cn1)c1cccc2ccccc12,A17,PBMC,RT-Y181C,8.6
CC(C)CN(C[C@@H](O)[C@H](Cc1ccccc1)NC(=O)[C@H](CC(N)=O)NC(=O)c1ccc2ccccc2n1)C(=O)NC(C)(C)C,NL4-3,MT-4,PR-L63P,1
CC(C)Nc1cccnc1N1CCN(C(=O)c2cc3cc(NS(C)(=O)=O)ccc3[nH]2)CC1,477 clinical isolates delavirdine-resistant,PBMC,-,67
Cc1ccc(NC(=S)N[C@H](C)c2cccc3ccccc23)nc1,A17V(RT-K103N Y181C),PBMC,RT-K103N Y181C,49.4
Nc1ccn([C@H]2CC[C@@H](CO)O2)c(=O)n1,HXB2-D65(RT-K65R),MT-4,RT-K65R,12.4
O=c1[nH]cnc2c1ncn2[C@H]1CC[C@@H](CO)O1,-,PBMC,RT-T215Y K219Q,1.375
CCCc1nnc(C[C@H](C[C@H](O)CN2CCN(Cc3ccc(-c4ccc(Cl)cc4)o3)C[C@H]2C(=O)NCC(F)(F)F)C(=O)N[C@H]2c3ccccc3OC[C@H]2O)o1,K-60 Clinical isolate,MT-4,PR-L10I M46I I54V Q58E L63P I64V V77I V82F I84V L90M I93L,1
Cc1cn([C@H]2C[C@H](N=[N+]=[N-])[C@@H](CO)O2)c(=O)[nH]c1=O,Q151M(RT-Q151M),MT-2,RT-Q151M,13.1
CC(C)c1c(COC(N)=O)cn(Cc2ccncc2)c1Sc1cc(Cl)cc(Cl)c1,-,C8166,RT-Y181C,<66.7
Nc1ncnc2c1ncn2[C@@H]1O[C@H](CO)C[C@@H]1F,RT P119S V179D L214F,MT-2,RT-P119S V179D L214F,4
CC(C)=CCN1Cc2cccc3[nH]c(=S)n(c23)C[C@@H]1C,-,PBMC,RT-E89G,3.6
O=c1[nH]cnc2c1ncn2[C@H]1CC[C@@H](CO)O1,JSL,PBMC,MDR,5
Nc1ccn([C@H]2CC[C@@H](CO)O2)c(=O)n1,LAI,MT-2,RT-K65R,3.1
CC(C)(C)NC(=O)[C@@H]1C[C@@H]2CCCC[C@@H]2CN1C[C@@H](O)[C@H](Cc1ccccc1)NC(=O)[C@H](CC(N)=O)NC(=O)c1ccc2ccccc2n1,NL4-3,MT-4,PR-L10R L63P,1
CC(=O)c1ccccc1NC(C(N)=O)c1c(Cl)cccc1Cl,DLV-resistant IIIB (RT-L100I),MT-4,RT-L100I,43.3
CCCCN1C(=O)C(CC2CCCCC2)NC(=O)C12CCN(Cc1ccc3c(c1)OCCO3)CC2,JSL,PBMC,MDR,1
Cc1cn([C@H]2C[C@H](N=[N+]=[N-])[C@@H](CO)O2)c(=O)[nH]c1=O,XM-AZT-resistant,PBMC,RT-M41L D67N K70R T215Y K219Q,56
S=C(NCCCn1ccnc1)Nc1nccs1,A17,PBMC,RT-Y181C,>100000
Cc1ccnc2c1NC(=O)c1cccnc1N2C1CC1,NRTI resistant (RT L74V M41L V106A T215Y) MDR,PBMC,RT-L74V M41L V106A T215Y,147

A second listing of 7 rows from above:

smiles,strain,cell line,mutations,result
Cc1cn([C@H]2C[C@H](N=[N+]=[N-])[C@@H](CO)O2)c(=O)[nH]c1=O,458 clinical isolates delavirdine-resistant,PBMC,-,1
Nc1nc(=O)n([C@H]2CO[C@@H](CO)S2)cc1F,HXB2D (RT-K65R),PBMC,RT-K65R,2.17
CC(C)(C)OC(=O)N[C@@H](Cc1ccccc1)[C@H](O)CNC[C@@H](O)[C@H](Cc1ccc(OCC(=O)N2CCOCC2)cc1)NC(=O)OC(C)(C)C,NL4-3,MT-2,PR-A71T V82A,8
C[C@@H](NC(=S)Nc1ccc(Cl)cn1)c1cccc2ccccc12,A17,PBMC,RT-Y181C,8.6
Cc1cn([C@H]2C[C@H](N=[N+]=[N-])[C@@H](CO)O2)c(=O)[nH]c1=O,Q151M(RT-Q151M),MT-2,RT-Q151M,13.1
C[C@@H](CNC(=S)Nc1ccc(Br)cn1)c1ccccc1,NNRTI-resistant (RT Y181C) A17,PBMC,RT-Y181C,223
Cc1ccc(CCNC(=S)Nc2ccc(Br)cn2)cc1,A17,PBMC,RT-K103N Y181C,>14300

Blank or dashed fields: not listed here. Neighbouring rows are from separate reports.